Results of unrelated studies side by side (data: NIAID ChemDB).

All rows: whole-cell or culture tests; organism: Mycobacterium tuberculosis

An empty or dashed field is not shown.

SMILES	strain or isolate	cells	method	read-out	tested at	value
CCCCCCCCCCCCCNC(CCO)[C@H]1OC2OC(C)(C)OC2C2OC(C)(C)OC21	H37Rv	-	-	MIC	-	<12.5 µg/mL
O=[N+]([O-])c1ccc(C2Nc3ccccc3S2)cc1	H37Rv	-	-	MIC	-	>200 µg/mL
COc1cc2ccc(Br)cc2cc1[C@@H](c1ccccc1)[C@](O)(CCN(C)C)c1ccccc1Br	H37Rv	-	resazurin	MIC	-	>32 µg/mL
CN(C)C(=O)CC(CSc1ccccc1)Nc1c(C(=O)N/N=C/c2cc(F)ccc2O)cnc2cc(F)ccc12	H37Rv	-	resazurin	MIC	-	10 µg/mL
CCC(O)c1c(-c2ccccc2)c(-c2ccccc2)n2ccc(C#N)cc12	H37Rv	-	-	inhibition	6.25 µg/mL	96%
Cc1cccc(OC/C(N)=N\NC(=O)c2ccncc2)c1	ATCC 35838 (rifampin-resistant)	-	-	MIC	-	1.56 µg/mL
C[C@H]1[C@H](C)CC[C@]2(C(=O)O)CC[C@]3(C)C(=CC[C@@H]4[C@@]5(C)CC[C@H](O)C(C)(C)[C@@H]5CC[C@]43C)[C@H]12	H37Ra	-	resazurin	MIC	-	12.5 µg/mL
N/C(=N\N=C\c1ccc(Br)cc1)c1ccncc1	Isolate 1751 ofloxacin-resistant	-	-	MIC	-	4 µg/mL
COc1cc2ccc(Br)cc2cc1[C@@H](c1cccc(C)c1)[C@](O)(CCN(C)C)c1cccc2ccccc12	H37Rv	-	resazurin	MIC	-	8 µg/mL
COc1ccc2nc(-c3ccc4c(c3)OCO4)[nH]c2c1	H37Rv	-	radiometric	MIC	-	>500 µM
N/C(COc1ccc([N+](=O)[O-])cc1)=N/NC(=O)c1ccncc1	ATCC 35820 (streptomycin-resistant)	-	-	MIC	-	3.12 µg/mL
COc1cc2c(cc1Cl)[n+](=O)c(C#N)c(Cl)n2[O-]	H37Rv	-	-	inhibition	6.25 µg/mL	78%
CO[C@@H]1C(C(CCO)NCCCCCCCC/C=C/CCCCCCCCN)OC2OC(C)(C)OC21	H37Rv	-	-	MIC	-	25 µg/mL
Cc1ccc(S(=O)(=O)NC(=O)NC(=S)c2ccco2)cc1	H37Rv	-	resazurin	MIC bound	-	>6.25 µg/mL
COc1cc2ccc(Br)cc2cc1[C@@H](c1ccc(Cl)cc1)[C@@](O)(CCN(C)C)c1ccccc1	Clinical isolate	-	resazurin	MIC	-	0.091 µg/mL
CCCCC(O)c1c(-c2ccccc2)c(-c2ccccc2)n2ccc(C#N)cc12	H37Rv	VERO	-	MIC	-	3.13 µg/mL
O=Nc1nc2ncccn2c1-c1ccccc1	H37Rv	-	resazurin	MIC bound	-	<6.25 µg/mL
COc1cccc2c1NC(c1ccccn1)S2	H37Rv	-	-	MIC	-	1.9 µg/mL
COc1cc(OC)c(/C=C2\N=C(C)N(Nc3nnc(NN4C(=O)/C(=C\c5c(OC)cc(OC)cc5OC)N=C4C)c4ccccc34)C2=O)c(OC)c1	H37Rv	-	BACTEC	inhibition	12.5 µg/mL	4%
COc1ccc2c(c1)nc(-c1ccc(OC)c(OC)c1)n2Cc1ccc(OC)c(OC)c1	H37Rv	-	radiometric	MIC	-	>500 µM
NC(=O)C1=C[C@H]2[C@H]3C=C[C@@]2(O)C(=O)O[C@@H]3O1	ETA-R	-	-	MIC	-	12.5 µg/mL
CCCCCCCCCCCCCCCCNC[C@H]1OC2OC(C)(C)OC2C2OC(C)(C)OC21	H37Ra	-	-	MIC	-	25 µg/mL
O=[N+]([O-])c1ccc2c(c1)NC(c1ccccn1)S2	H37Rv	-	-	MIC	-	1.25 µg/mL
Cc1cc2nc(C#N)c(N3CCN(c4ccc([N+](=O)[O-])cc4)CC3)nc2cc1C	H37Rv	-	-	inhibition	6.25 µg/mL	0%
CCCCCCCCCCCC1Nc2ccccc2S1	H37Rv	-	-	MIC	-	100 µg/mL
CSc1ccccc1/C=N/NC(=O)c1cnc2cccc(C(F)(F)F)c2c1NC(CSc1ccccc1)CC(=O)N(C)C	H37Rv	-	resazurin	MIC	-	>100 µg/mL
Cc1ccc(Nc2nc3c(s2)C(=O)c2ccccc2C3=O)cc1	H37Rv	VERO	BACTEC	MIC	-	1.6 µg/mL
CC1(C)CC[C@]2(C(=O)O)CC[C@]3(C)C(=CCC4[C@@]5(C)CC[C@H](OC(=O)/C=C/c6ccccc6)C(C)(C)C5CC[C@]43C)C2C1	H37Ra	-	resazurin	MIC	-	50 µg/mL
O=C1c2c(O)cccc2Cc2cc(CO)cc(O)c21.OCC1OC(O)C(O)C(O)C1O	H37Rv	-	BACTEC	inhibition	12.5 µg/mL	42%
C[C@@H]1CC[C@]2(C(=O)O)CC[C@]3(C)C(=CCC4[C@@]5(C)CC[C@H](OC(=O)/C=C/c6ccccc6)C(C)(C)C5CC[C@]43C)C2[C@H]1C	H37Ra	-	resazurin	MIC	-	>200 µg/mL
CCCCCCCCCCCCNC(CCO)C1OC2OC(C)(C)OC2[C@H]1OC	H37Ra	-	-	MIC	-	12.5 µg/mL
COc1c([C@@H](c2ccccc2)[C@@](O)(CCN(C)C)c2cccc3ccccc23)cc2cc(Br)ccc2c1Br	Clinical isolate	-	resazurin	MIC	-	0.182 µg/mL
CN(C)C(=O)CC(CSc1ccccc1)Nc1c(C(=O)N/N=C/c2ccc(F)cc2)cnc2cccc(C(F)(F)F)c12	H37Rv	-	resazurin	MIC	-	5 µg/mL
COc1ccc2nc(-c3ccc([N+](=O)[O-])cc3)[nH]c2c1	H37Rv	-	radiometric	MIC	-	>500 µM
CCCC(O)c1c(-c2ccccc2)c(-c2ccccc2)n2ccc(C#N)cc12	H37Rv	-	-	inhibition	6.25 µg/mL	84%
N/C(COc1ccc(Cl)cc1)=N/NC(=O)c1ccncc1	ATCC 35822 (isoniazid-resistant)	-	-	MIC	-	100 µg/mL
Fc1ccc(-c2nc3ccccc3[nH]2)cc1	H37Rv	-	radiometric	MIC	-	>500 µM
COc1cc(C2(c3ncc[nH]3)S[C@@H](c3c(/C(=N/O)C(=O)O)[nH]c4ccccc34)SC[C@H]2O)ccc1O	H37Rv	-	-	EC50	-	>12.5 µg/mL
CCCCCC(O)c1c(-c2ccccc2)c(-c2ccccc2)n2ccc(C#N)cc12	H37Rv	-	-	inhibition	6.25 µg/mL	96%
Cc1ccc(NC2=CC(=O)C(=O)c3ccccc32)cc1C	H37Rv	-	resazurin	MIC bound	-	<6.25 µg/mL
CN(C)C(=O)CC(CSc1ccccc1)Nc1c(C(=O)N/N=C/c2cc(F)ccc2O)cnc2cccc(C(F)(F)F)c12	H37Rv	-	resazurin	MIC	-	10 µg/mL
Cc1cc2nc(Cl)c(C#N)nc2cc1C	H37Rv	-	-	inhibition	6.25 µg/mL	14%
Cc1ccc(/C=N/N=C(\N)c2ccncc2)c(C)c1	H37Rv	-	-	MIC	-	8 µg/mL
CC(O)c1c(-c2ccccc2)c(-c2ccccc2)n2ccc(C#N)cc12	H37Rv	-	-	inhibition	6.25 µg/mL	78%
CO[C@@H]1C[C@H]2C=C[C@H]3[C@H]4O[C@]2(/C(C)=C/[C@@H](C)[C@H](C(C)O)OC1=O)[C@@H]3[C@H](O)[C@@H](C)[C@H]4OC(=O)c1ccc[nH]1	H37Rv	-	BACTEC	MIC	-	≥12.5 µg/mL
CCCCC(=O)c1ccn2c(-c3ccccc3)c(-c3ccccc3)c(C(O)c3ccccc3)c2c1	H37Rv	-	-	inhibition	6.25 µg/mL	40%
C=C(C)CC[C@H]1CN(c2ccn(N3CCOCC3)c2)C(=O)O1	ATCC 35828 (pyrazinamide-resistant)	-	-	MIC50	-	>100 µM
O=C(CC(=O)N1N=C(c2ccccc2)C(N=Nc2ccc(C(=O)O)cc2)C1=O)Nc1ccc(F)cc1	H37Rv	-	BACTEC	inhibition	12.5 µg/mL	-3%
c1ccc2c(c1)NC(c1ccncc1)S2	H37Rv	-	-	MIC	-	6.25 µg/mL
COc1ccc(/C=C/C(=O)O[C@H]2CC[C@@]3(C)C(CC[C@]4(C)C3CC=C3C5[C@@H](C)[C@H](C)CC[C@]5(C(=O)O)CC[C@]34C)C2(C)C)cc1	H37Ra	-	resazurin	MIC	-	100 µg/mL
COc1cc(-c2nc3ccccc3[nH]2)cc(OC)c1OC	H37Rv	-	radiometric	MIC	-	>500 µM
CO[C@H]1/C=C/O[C@@]2(C)Oc3c(C)c(O)c4c(O)c(c(/C=N/N5CCN(C)CC5)c(O)c4c3C2=O)NC(=O)/C(C)=C\C=C\[C@H](C)[C@H](O)[C@@H](C)[C@@H](O)[C@@H](C)[C@H](OC(C)=O)[C@@H]1C	-	-	-	MIC	-	0.007 µg/mL
c1ccc2c(c1)NC(c1ccc3c(c1)OCO3)S2	H37Rv	-	-	MIC	-	200 µg/mL
N/C(=N\N=C\c1ccccc1)c1ccncc1	Isolate 1751 ofloxacin-resistant	-	-	MIC	-	64 µg/mL
CC1CN(c2cc3c(cc2F)c(=O)c(C(=O)O)cn3-c2ccc(F)cc2F)CCN1	-	-	-	MIC90	-	2.3 µg/mL
CCCCCCCCCCCCNC(CCO)C1OC2OC(C)(C)OC2[C@@H]1OC	H37Ra	-	-	MIC	-	25 µg/mL
N#Cc1nc2cc(Cl)ccc2nc1N1CCN(c2ccc([N+](=O)[O-])cc2)CC1	H37Rv	-	-	EC50	-	>6.25 µg/mL
Cc1[nH]c2ccccc2c1C=O	H37Rv	-	BACTEC	inhibition	6.25 µg/mL	0%
FC(F)(F)c1ccc2c(c1)NC(c1ccncc1)S2	H37Rv	-	-	MIC	-	1 µg/mL
CO/C(=N\N=C\c1ccc(C(F)(F)F)cc1)c1ccncc1	-	-	BACTEC	inhibition	0.5 µM	0%
CC[C@H]1OC(=O)[C@H](C)[C@@H](O[C@H]2C[C@@](C)(OC)[C@@H](O)[C@H](C)O2)[C@H](C)[C@@H](O[C@@H]2O[C@H](C)C[C@H](N(C)C)[C@H]2O)[C@](C)(O)C[C@@H](C)C(=O)[C@H](C)[C@@H](O)[C@]1(C)O	-	-	-	MIC90	-	>10 µg/mL
CC1(C)CCC[C@@]2(C)C1CC[C@@]1(C)[C@@H]3CC=C4C(=O)OCC4[C@@]3(C)[C@H](O)C[C@@H]12	H37Rv (ATCC 27294)	-	BACTEC	EC50	-	>12.5 µg/mL
CSC(=S)N/N=C/c1ccccc1O	H37Rv	-	BACTEC	inhibition	128 µg/mL	100%
CC1=C2C(=CO[C@H](C)[C@H]2C)C(=O)C(C(=O)O)=C1O	49	-	-	inhibition	100 µg/mL	65%
CN(C)c1ccc(N=Nc2ccc3nc[nH]c3c2)cc1	H37Rv	-	resazurin	inhibition	6.25 µg/mL	67%
N#Cc1c(N2CCN(c3ccc([N+](=O)[O-])cc3)CC2)[n+](=O)c2ccccc2n1[O-]	H37Rv	-	-	MIC	-	>0.1 µg/mL
CC/C=C/C/C=C/C/C=C/CCCCCCCC(=O)OCC	H37Rv	-	BACTEC	inhibition	12.5 µg/mL	17%
COc1ccc(Cn2c(-c3ccc(OC)c(OC)c3)nc3ccccc32)cc1OC	H37Rv	-	radiometric	MIC	-	>500 µM
COc1ccc(-n2cnn3c(=O)c4cn[nH]c4nc23)cc1	H37Rv	-	resazurin	MIC bound	-	>6.25 µg/mL
Cc1csc(C(C)(O)c2nnc(Nc3ncn(Cc4c(F)cccc4F)n3)s2)n1	M103I	-	-	MIC	-	>25 µM
CCCCCCCCCCCCCCCCCCNC(CCO)[C@H]1OC2OC(C)(C)OC2C2OC(C)(C)OC21	H37Rv	-	-	MIC	-	6.25 µg/mL
CCCN1CN(C(C(=O)NC2C(=O)N3C(C(=O)O)=C(C)CSC23)c2ccc(O)cc2)CSC1=S	H37Rv	-	BACTEC	inhibition	12.5 µg/mL	46%
CC1(C)CC[C@]2(C(=O)O)CC[C@]3(C)C(=CCC4[C@@]5(C)CC[C@H](OC(=O)/C=C/c6ccc(O)c(O)c6)C(C)(C)C5CC[C@]43C)C2C1	H37Ra	-	resazurin	MIC	-	200 µg/mL
CC1(C)OC2O[C@H](C(CCO)NC3CCCCC3)C3OC(C)(C)OC3C2O1	H37Ra	-	-	MIC	-	>100 µg/mL
COc1cc2ccc(Br)cc2cc1[C@@H](c1ccccc1)[C@@](O)(CCN(C)C)c1ccc(Br)cc1	Clinical isolate	-	resazurin	MIC	-	0.331 µg/mL
Clc1ccc2c(c1)NC(c1ccccn1)S2	H37Rv	-	-	MIC	-	0.8 µg/mL
O=C(NCc1cnccn1)c1ccco1	H37Rv	-	BACTEC	MIC bound	-	>12.5 µg/mL
CCCCCCCCCC(O)c1c(-c2ccccc2)c(-c2ccccc2)n2ccc(C#N)cc12	H37Rv	-	-	inhibition	6.25 µg/mL	0%
Cc1c2ccncc2c(C)c2c1[nH]c1ccc(OCCN(C)C)cc12	H37Rv	-	resazurin	inhibition	6.25 µg/mL	-33%
CCCCCCCC/C=N/NC(=O)c1cnc2cccc(C(F)(F)F)c2c1NC(CSc1ccccc1)CC(=O)N(C)C	H37Rv	-	resazurin	MIC	-	1.25 µg/mL
Cc1ccc2[nH]c(=O)c(=O)[nH]c2c1	H37Rv	-	BACTEC	inhibition	6.25 µg/mL	0%
COc1cc2ccc(Br)cc2cc1[C@@H](c1ccccc1)[C@@](O)(CCN(C)C)c1cccc(Br)c1	Clinical isolate	-	resazurin	MIC	-	0.084 µg/mL
CNC1Cc2c[nH]c3cccc(c23)C12C=C(C)C(=O)O2	H37Rv	-	BACTEC	MIC	-	≥12.8 µg/mL
COc1ccc(/C=N/NC(=O)c2cnc3cc(F)ccc3c2NC(CSc2ccccc2)CC(=O)N(C)C)c(F)c1	H37Rv	-	resazurin	MIC	-	5 µg/mL

A number after MIC or MFC names an inhibition level or a share of isolates. Inhibition is in % at the dose shown (toxicity tests: loss of growth or viability). Conditions beyond the fields shown may differ between rows. ECn is the concentration giving n% inhibition of infection, replication or growth. MIC bound comes from a single tested concentration.